PSTVd loop 6 mutant pool in Nicotiana benthamiana

The measurements come from Wu et al. 2024 (doi:10.1371/journal.ppat.1012142).

Region: loop 6 of PSTVd (intermediate strain), upper and lower strand joined, each 5' to 3', the first 5 letters being the upper strand, closing pairs included. Wild type: UGACCGCGAG. Varied positions (N): UNNNCGNNNG.

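A pool of all variants was put on leaves of three Nicotiana benthamiana plants. Samples came from the inoculated region at 5 days, the leaf margin at 10 and upper systemic leaves at 12.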

Values are reads per thousand in the sample; higher means more abundant, 0 means not found.
Each site shows the three plants.
"Pool" is the share in the plasmid pool used as inoculum, on the same scale.
The inoculated region was read from the minus strand, the other sites from the plus strand.

sequence,pool,inoculated region,leaf margin,systemic leaves
UGGUCGGGAG,0.275,0.747 / 0.701 / 0.590,0.0828 / 0.177 / 0.0696,0 / 0 / 0
UAGGCGGCCG,0.327,0.156 / 0.0898 / 0.0553,0.0552 / 0 / 0,0 / 0 / 0
UGCACGUCGG,0.235,0.104 / 0.0180 / 0.0369,0.0276 / 0 / 0,0 / 0 / 0
UACCCGAUGG,0.248,0.0521 / 0.108 / 0.184,0 / 0 / 0.0696,0 / 0 / 0
UUGGCGGCAG,0.379,0.0521 / 0.0359 / 0.0922,0 / 0 / 0,0 / 0 / 0
UGCACGGAUG,0.222,0.0521 / 0.108 / 0.0738,0 / 0 / 0,0 / 0 / 0.0205
UCCGCGCAGG,0.222,0.0869 / 0.0719 / 0.111,0.0276 / 0 / 0.0232,0 / 0 / 0
UUUGCGUUCG,0.235,0.0695 / 0.126 / 0.0553,0.0552 / 0 / 0,0 / 0 / 0
UCGACGUGGG,0.209,0.0695 / 0.0898 / 0.0553,0 / 0 / 0,0 / 0 / 0
UUGUCGCGCG,0.248,0.139 / 0.0539 / 0.0738,0 / 0 / 0.0232,0 / 0 / 0
UGAGCCUACG,0.0131,0 / 0 / 0,0 / 0 / 0,0 / 0 / 0
UUUUCGGAGG,0.105,0.0869 / 0.0898 / 0.0738,0 / 0 / 0,0 / 0 / 0
UUCACGUGUG,0.314,0.122 / 0.126 / 0.0369,0.0276 / 0 / 0,0 / 0 / 0
UAAACGAUGG,0.248,0.191 / 0.162 / 0.0553,0 / 0 / 0.0232,0 / 0 / 0
UCCGCGACCG,0.235,0.139 / 0.0719 / 0.0184,0.0276 / 0 / 0.0232,0 / 0 / 0
UGCGCGUUGG,0.209,0.122 / 0.0719 / 0.166,0 / 0 / 0,0 / 0 / 0
UUGUCGCGGG,0.248,0.0695 / 0.0898 / 0.111,0.0276 / 0 / 0,0 / 0 / 0
UGGCCGUAUA,0.0131,0 / 0 / 0,0.0276 / 0 / 0,0 / 0 / 0
UCGGCGAGGG,0.248,0.0869 / 0.0719 / 0.0738,0 / 0 / 0,0 / 0 / 0
UGACCGUCCG,0.261,0.226 / 0.180 / 0.203,0.221 / 0.353 / 0.0232,0.0180 / 0 / 0.103
UGGUCGCUGG,0.196,0.104 / 0.0719 / 0.0369,0.0276 / 0 / 0.0232,0 / 0 / 0
UGCUCGAUAG,0.288,0.209 / 0.108 / 0.0738,0 / 0 / 0.209,0 / 0 / 0
UGAACGAGCG,0.196,0.0521 / 0.144 / 0.111,0.0276 / 0 / 0.0696,0 / 0 / 0
UUGACGAUGG,0.379,0.122 / 0.0359 / 0.0553,0.0276 / 0 / 0,0 / 0 / 0
UCCGCGGGAG,0.131,0.0869 / 0.144 / 0.111,0 / 0 / 0,0 / 0 / 0
UGCCCGGUUG,0.327,0.191 / 0 / 0.0738,0 / 0.0252 / 0,0 / 0 / 0
UAAGCGGUUG,0.261,0.0869 / 0.0719 / 0.0922,0 / 0 / 0.0232,0 / 0 / 0
UAACCGUGGG,0.170,0.139 / 0.0719 / 0.0184,0 / 0 / 0,0 / 0 / 0
UGUGCGGCAG,0.209,0.0348 / 0.0359 / 0.0738,0 / 0 / 0.0232,0 / 0.0404 / 0
UGAGCGGUGG,0.222,0.156 / 0.234 / 0.111,0.0828 / 0 / 0,0 / 0 / 0
UGUACGUGCG,0.222,0.0521 / 0.0898 / 0.0922,0 / 0 / 0,0 / 0.0202 / 0
UGACCGGGAG,0.144,0.382 / 0.467 / 0.295,0.690 / 0.782 / 0.464,0.413 / 0.525 / 0.800
UUUCCGCACG,0.275,0.0521 / 0.198 / 0.129,0 / 0 / 0.0464,0 / 0 / 0
UUGUCGGGCG,0.405,0.174 / 0.126 / 0.0369,0.0276 / 0 / 0,0 / 0 / 0
UUGGCGCGCG,0.353,0.156 / 0.0898 / 0.129,0 / 0 / 0.0232,0 / 0 / 0
UCUCCGCCGG,0.170,0.104 / 0.0539 / 0.0369,0.0276 / 0 / 0,0 / 0 / 0
UGAUCGUUGG,0.431,0.0695 / 0.162 / 0.148,0 / 0 / 0,0 / 0 / 0
UACCCGAGCG,0.248,0.0695 / 0.0359 / 0.0922,0 / 0 / 0,0 / 0 / 0
UACUCGAAUG,0.235,0.122 / 0.0719 / 0.0738,0 / 0 / 0,0.0180 / 0 / 0
UCCACGACCG,0.170,0.104 / 0.0180 / 0.0922,0 / 0 / 0,0 / 0 / 0
UGUCCGGGAG,0.235,0.156 / 0.126 / 0.0369,0.0276 / 0 / 0,0 / 0 / 0
UAGUCGAUAG,0.222,0.104 / 0.108 / 0.0369,0 / 0 / 0.116,0 / 0 / 0
UGCACGUGCG,0.261,0.139 / 0.0898 / 0.129,0.0276 / 0 / 0,0 / 0 / 0
UUUGCGACCG,0.157,0.0695 / 0.0359 / 0.0922,0 / 0 / 0.0232,0 / 0 / 0
UGUCCGUCGG,0.340,0.139 / 0.126 / 0.0922,0 / 0 / 0.0232,0 / 0 / 0
UCGGCGGACG,0.261,0.0695 / 0.0359 / 0.0738,0 / 0 / 0.0232,0 / 0 / 0
UUCUCGUAAG,0.144,0.0695 / 0.0539 / 0.0922,0 / 0 / 0,0 / 0 / 0
UUUACGCCAG,0.196,0.191 / 0.108 / 0.184,0 / 0 / 0,0 / 0 / 0
UCAACGUCCG,0.209,0.0695 / 0.0898 / 0.129,0.0276 / 0 / 0,0 / 0 / 0
UCUUCGGCAG,0.366,0.139 / 0.180 / 0.0738,0 / 0 / 0,0 / 0 / 0
UAAACGUGGG,0.209,0.104 / 0.0180 / 0.0738,0 / 0 / 0.0232,0 / 0 / 0
UGCGCGGCUG,0.222,0.122 / 0.0719 / 0.0553,0 / 0 / 0.0232,0 / 0 / 0
UCCCCGAAAG,0.209,0.0869 / 0.0180 / 0.0922,0 / 0.0252 / 0,0 / 0 / 0
UGAUCGCGAG,0.340,0.400 / 0.287 / 0.369,0.497 / 0.908 / 0.255,0.377 / 0.162 / 0.328
UAUGCGAUGG,0.183,0.104 / 0.0898 / 0.0184,0.0276 / 0 / 0.0232,0 / 0 / 0
UAUGCGCUAG,0.131,0.191 / 0.0719 / 0.0738,0 / 0 / 0,0 / 0 / 0
UAAACGGCGG,0.118,0.156 / 0.144 / 0.129,0.0276 / 0 / 0,0 / 0 / 0
UUGCCGGCGG,0.222,0.0869 / 0.180 / 0.0369,0 / 0 / 0,0 / 0 / 0
UGGACGAAUG,0.248,0.122 / 0.0898 / 0.0738,0.0276 / 0 / 0.0232,0 / 0 / 0
UCAGCGACUG,0.235,0.139 / 0.0359 / 0.0369,0.0276 / 0 / 0,0 / 0 / 0
UCCCCGCCUG,0.327,0.139 / 0.198 / 0.111,0 / 2.17 / 0,0 / 0 / 0
UCCCCGAUAG,0.418,0.156 / 0.0719 / 0.111,0 / 0 / 0.0928,0 / 0 / 0
UAUCCGCAUG,0.0915,0.0695 / 0.126 / 0.129,0 / 0 / 0.0464,0 / 0 / 0
UAGCCGUCUG,0.275,0.0869 / 0.0539 / 0.111,0.0276 / 0.0504 / 0,0 / 0 / 0
UCCGCGAGUG,0.209,0.104 / 0.0898 / 0.0738,0 / 0 / 0,0 / 0 / 0
UUGCCGUGUG,0.405,0.0869 / 0.126 / 0.0922,0 / 0 / 0.0232,0 / 0 / 0
UGGUCGGUAG,0.196,0.0521 / 0.0898 / 0,0 / 0 / 0,0 / 0 / 0
UAAUCGUGGG,0.157,0.156 / 0.0539 / 0.129,0 / 0 / 0.0232,0 / 0 / 0
UAGUCGGCUG,0.196,0.0174 / 0.0898 / 0.0369,0 / 0 / 0,0 / 0 / 0
UGUACGGGAG,0.222,0.695 / 0.844 / 1.09,0.248 / 0.252 / 0.0464,0 / 0.0808 / 0.0205
UCUUCGAUUG,0.392,0.209 / 0.0359 / 0.0553,0 / 0 / 0.0232,0 / 0 / 0
UCUGCGUACG,0.366,0.0695 / 0.0539 / 0.148,0 / 0 / 0,0 / 0 / 0
UUACCGGAUG,0.209,0.104 / 0.108 / 0.203,0.0276 / 0 / 0.0464,0 / 0 / 0.0205

Excerpt, the final 9 entries:

UCCGCGAGUG (pool 0.209): inoculated region 0.104 / 0.0898 / 0.0738; leaf margin 0 / 0 / 0; systemic leaves 0 / 0 / 0.
UUGCCGUGUG (pool 0.405): inoculated region 0.0869 / 0.126 / 0.0922; leaf margin 0 / 0 / 0.0232; systemic leaves 0 / 0 / 0.
UGGUCGGUAG (pool 0.196): inoculated region 0.0521 / 0.0898 / 0; leaf margin 0 / 0 / 0; systemic leaves 0 / 0 / 0.
UAAUCGUGGG (pool 0.157): inoculated region 0.156 / 0.0539 / 0.129; leaf margin 0 / 0 / 0.0232; systemic leaves 0 / 0 / 0.
UAGUCGGCUG (pool 0.196): inoculated region 0.0174 / 0.0898 / 0.0369; leaf margin 0 / 0 / 0; systemic leaves 0 / 0 / 0.
UGUACGGGAG (pool 0.222): inoculated region 0.695 / 0.844 / 1.09; leaf margin 0.248 / 0.252 / 0.0464; systemic leaves 0 / 0.0808 / 0.0205.
UCUUCGAUUG (pool 0.392): inoculated region 0.209 / 0.0359 / 0.0553; leaf margin 0 / 0 / 0.0232; systemic leaves 0 / 0 / 0.
UCUGCGUACG (pool 0.366): inoculated region 0.0695 / 0.0539 / 0.148; leaf margin 0 / 0 / 0; systemic leaves 0 / 0 / 0.
UUACCGGAUG (pool 0.209): inoculated region 0.104 / 0.108 / 0.203; leaf margin 0.0276 / 0 / 0.0464; systemic leaves 0 / 0 / 0.0205.

The authors trace changes outside the varied positions to PCR and sequencing errors or to mutation in the plant; presence does not show that a variant is infectious alone.
Wild type was 20.7 per thousand in the pool and the most common sequence in every sample (inoculated region 195, 198, 203; leaf margin 629, 591, 734; systemic leaves 942, 870, 868).
Samples held 36,220 to 57,551 reads, so the smallest values rest on one or two reads.